Test results taken from article PMC12542678.
The exact form of at least one protein or probe is not confirmed.

These sequences were tested on His-CalR (Vibrio parahaemolyticus RIMD2210633) (assay: EMSA). Conditions: 10 uL: 10 mM Tris-HCl pH 7.5, 50 mM NaCl, 1 mM MgCl2, 0.5 mM EDTA, 0.5 mM DTT, 0.625 ug/mL salmon sperm DNA, 100 ng target DNA, 0-13.80 pmol His-CalR, recombinant protein, protein details: 6xHis, probe letters rebuilt from the primers and the genome.
“GCGCGTCGACGGTCTTGCCATTTACGAGTTTGAAGTTGGCCTTCAACGTAAACTTGTGAACCTTTACGCAGGTACTCACCAGCAACTTCTGCCAACTTACCGAACAACACAACACGGTGCCATTCTGTTTTTTCGCGCTGTTCGCCAGTCGCTTTGTCACGCCATGACTCAGAAGTAGCAATCGTGATGTTTGCTACCGCACCGCCATTAGGCATGTAACGAATTTCAGGGTCGTTACCTAGATTCCCCACCAAAATAACTTTGTTAATTCCACGGCTGGCCATGATGTGCTCCGTTTCACTCTGGATCTGTATATTAATTTTAGCGCAATAGAATACACGCTTTGATGTTTTGGTTAAAGCCCAATGCCATTGTGTTCGATCACGCCCTACGCTAGAACCAAAATCTCAGTTCAACTTTCATATGTAGCATTTTTGATTCGCGTTGCAGACTTCATTCGTGAACCTTTGAATCTCAACGCATTTATTCACCAAAGCTATAGCTCTCCCCATACTTTAATGCCAACTTACGGCCTCTACAGAACCTTGGGAGATTTGAACACGTGAGAAAGTCGGCTTACGCAAGAAAGCTATTTCTGATTAGTATGGAAGACGATGCTGCGGAATTCGCGC (double strand) [scrP promoter]”: binds. “GCGCGAATTCAAGCGAACTCCATCTCATAAGAACGAATTAGTCCTTTGTGTTTCATGACCTAGTTTCCCTTCTAGCACGCTACCGCCATTGGGGTGATTGCCCAATAGCCGTGTCGCGAACGTTTTAATTGATGAGCAGAGACATTTCTATGAATGTTTCTGAATTTCTGTAACGCATAAATTCGAAGGTAAGTTTAAAAATTCGTGTTGTTTAGGTAAGTGGAAATAAGAATGAAATTTAGACCTTTGGCTAAGTTTTGCTGTTTAGGAAAAAGCTGGTACTTGCTAAGCAGGGATGAGGAAAAGTATTAAGAAGCGAGTTTGATTATAAAAACTAAGGTTTAATTTCTTGATGGTCTAACGGATGACTTATTTACAGGGAAGGTCGACGCGC (double strand) [cpsA promoter]”: binds. “GCGCGAATTCGTCTTGCTGATTCTGATGCAACAGCTCAATAACACCAACACACAAAGCAACAAAAGCGAAAAAGAACAGTGCAAAATAGCACTGCTTTCTGGGTGAATAACGCATTAGCTCCCCACTAGCTCGTCCGTTACTACGAGAATTATTCTTTTATTGTTAAAATTCTTATTATCTACAAGAATAACCAATAGCCTTTGCAAAGGTAATAATTATCTGAAATTTTTATGGTTTAAATAGGCAACGGGATGCAAGGACAAGGCGATTTATTTGAAAGTACGGATTGGCAAGAGGTACGCCAAGGTAAGCTCTTTTATCAGCCAAACTTTCTTTCTCAGCAAGAAGCGGATACGTACTTTTCAACGCTTATGAGTACCTTGCCTTGGCAACAAGAACGCATAACCATTTTCGGGAAATCGGTACTTCAACCTCGTTTGCAGACTTGGCATGGCGATGCGCCTTACACCTATTCGGGTTTAACCATGGCACCTCACCCTTGGACGTCTGAGCTGTCATCACTCAAGGCTCGCTGTGAAAGCCTTGCCAACACCCCGTTCAACTCTGTATTGGCGAATCTGTATCGCGACGGTCAGGACTCGATGGGATGGCACCAAGACAATGAACCAGAGGTCGACGCGC (double strand) [vpa0198 promoter]”: binds. “GCGCGAATTCCGAGCGAATTACTATTTGGATCAAAGGTAAACCTTTGAGCAAGTAGAAATTTGGTGCCGATGTTAGTCATTTAGTTCTTCTTAGATGGATGATGTTGTAATTATGGTGATTTATATCACAAAATTACGTTTGCGCATGGGAGATACGCGACGTTTTAGATGCTTTTAGGGGGGTAGGATAATTAAATTTTTCTAAAAAAACACCGTTTTTAGCAATATTGACCTTGAATTTACATTTGTCAGCCACATGTTAAATGACATCTTAGTGTGGTGATTTCATGGGGCTAAATCACAAAGTCGTCCCTGAAAAAGCCTGTTAGTTTAGATGTTATGGAGCACACATGAGCGAAACCGTATCTCAAAATAAAGAAACTCGTGGTTTTCAATCAGAAGTAAAACAACTACTTCATTTAATGATCCATTCTCTTTATTCCAATAAAGAGATCTTTTTGCGCGAGCTGATTTCTAACGCATCAGATGCATCAGACAAATTGCGTTTTCAGGCACTTTCGAATCCAGATTTATATGAAGGTAACGCAGATCTTGGCGTTAAGCTGTCATTTGATGAAAGTGCAAATACCTTAACGATGTCGACGCGC (double strand) [toxR promoter (positive control)]”: binds. “GCGCGAATTCAGCATAGATACAAGAAAACAAAATGATAATAAAGTTGAGGGTTCTTATATCTAAATAGTGACTCTCCATATGTGCTCCACAGCGAACCATTACTCGGGCAACTCCTTTGCCCGTCATCAATAAACGTCCAGTATGTTAGCGTAATTATAGAATGATGTCTTAAGTTAAGCGGCTATTCGTTGACCAGCTCGAATTCTTTGATTTCTTCTGCTTTTTTAGTGAACAAAAGTCCGATCGTTGCCATGATGACACTAGGTACAATCCAGCTCGCGAACTCATTATACAAAGGCATGTTGTGGCTCATCCATTGGTCTACGGCTTCTGGCATGTAGCCCAAAATGTGCAGAGCATCGACACAACCAAATGCTAGTGCGGTGAACGCGGTAAGCACCAACATGAACTGAGACATTTTGTTGCGAACGGGTGCCATCATCATCAAAGCAATCGCCACAGGATGAAGTGCCACAACCGCAGGTAAAGTGATTGCCAATAGCTGCTCTAAACCGATGTTGGCGATAAAGCCTGACAGTACCATGGTGATGACGACACAGCTTTTGTAGTTCACTTTGCTAAAGGTGTTGTCATAGAGTCGACGCGC (double strand) [vpa0184 promoter]”: binds. “GCGCGTCGACCAATAGGATGATGAAACCGATGCGGCGGCAAAGCATGTGGATGGCATGCTTTGCTGCTTGCTTGTGCTTAGCATTATTACTAAGTTGTTCATCGAAAGTTATATAAAAAGAGGAACAAATGAGCTTTATGAGTAAGTGGTAATTTCTGTAATAACCATAAGTTATGTATGCCTTTTGTTTGTCGTGAAGGTCAATAATCTCATTGGATCGAGCGATGTATAGTCGCTAAATTAAGTTGGCAACTTTTCCGTGCTGTTATTGGCATTTAGTACCCATTGTTTGACCTTAATACGAAAAACGACATTACCCATCAACAATGTTTGCCTGAGTTTCGGCTGTTGTATTAACGGCTGCATTTTCTGCAGTTGAAGATAACTACTTTACAAAAGAACTCTCCATGCAAACTCGCCGCGAACTCTTCTTTGCCCCTTTTCAGCGTCTGGCTGTAATCGCAGAGCAATGGCGAGCTGGGTCTAAATCTTACTTGAATTCGCGC (double strand) [vpa1429 promoter]”: binds.
